{"source": "patent US20170165254A1", "about": "“TREATING FLAVIVIRUS INFECTIONS WITH AMODIAQUINE AND DERIVATIVES THEREOF” (GEORGETOWN UNIVERSITY, priority 2014, published 2017)", "key": {"DENV2 replicon": {"system": "DENV2 replicon", "test": "Replicon inhibition assay, BHK-21/DENV2 replicon cells (Rluc)", "format": "cell-based, Dengue Virus 2 (DENV2)"}, "WNV replicon": {"system": "WNV replicon", "test": "Replicon inhibition assay, Vero/WNV replicon cells (Rluc)", "format": "cell-based, West Nile virus (WNV)"}}, "data": [{"smiles": "COc1ccc2nc3cc(Cl)ccc3c(NC(C)CCCN(CCCl)CCCl)c2c1", "note": "(stereo not shown)", "values": [{"measurement": "% Replicon Inhibition (Means ± SEM) DENV2", "setting": "DENV2 replicon; 50 μM in 1% DMSO, BHK-21/DENV2 replicon cells", "result": "99.9 ± 0.01", "unit": "%"}, {"measurement": "EC50", "setting": "DENV2 replicon; read-out: DENV replicon EC50, Table 2, unit inferred", "result": 390, "unit": "nM"}, {"measurement": "% Replicon Inhibition (Means ± SEM) WNV", "setting": "WNV replicon; 50 μM in 1% DMSO, Vero/WNV replicon cells", "result": "99.8 ± 0.0", "unit": "%"}, {"measurement": "EC50", "setting": "WNV replicon; read-out: WNV replicon EC50, Table 2, unit inferred", "result": 360, "unit": "nM"}]}]}
